The values that follow come from paper PMC6118392, “VapC proteins from Mycobacterium tuberculosis share ribonuclease sequence specificity but differ in regulation and toxicity” (PLoS ONE, 2018).

For at least one entry, the source does not settle the construct or the ends of the probe. At least one verdict rests on a figure or table, not on a statement of the authors.

The subject of the series is VapB29 + VapC29. The series is described as follows: competition with a labelled probe. The following applies: recombinant protein; protein details: C-terminal His; label: 3' DIG-ddUTP.

Turning to “GGTGAGCGTCGGCGCGCGCATCACGATGCAGCGATGTTAGGATGAGGCGG (double strand) [Oligo 5 (50 bp vapBC29 promoter, control)]”, the binding result is “binds”.
